Measured values from several laboratories, pooled; numbers as filed in NIAID ChemDB.

All rows: growth or infection tests

Percent inhibition refers to the dose given; in toxicity tests it is the harm to the cells. Fold resistance has wild type as its base. An empty or dashed field is not shown. ECn is the concentration giving n% inhibition of infection, replication or growth. Lines come from different laboratories, so protocols vary.

smiles,strain or isolate,measure,tested at,cells,mutations,read by,agent,result
COc1ccc(-c2cnc3nc(N)nc(N4CCN(C)CC4)c3n2)cc1OC,IIIB,EC50,-,MT-4,-,-,HIV,>100 µM
N#Cc1csc(NC(=O)NCCc2ccccc2)n1,-,inhibition,100 µg/mL,MT-4,-,cytopathic effect / XTT,HIV-2,0%
O=c1ccn(-c2cn(C(O)CP(=O)(O)O)nn2)c(=O)[nH]1,ROD,inhibition,100 µM,CEM,-,-,HIV-2,0%
[2H]C(CCCN)(CNC[C@H](O)[C@@]12CC[C@]3(C)[C@H](CC[C@@H]4[C@@]5(C)CC[C@H](OC(=O)[C@H]6C[C@@H](C(=O)O)C6(C)C)C(C)(C)[C@@H]5CC[C@]43C)C1=C(C(C)C)C(=O)C2)NC(=O)c1ccc(Cl)cc1,92HT599,EC50,-,MT-2,-,p24 / ELISA,HIV-1,<1 µM
C[n+]1cn(-c2cn(C(O)CP(=O)(O)O)nn2)c(=O)[nH]c1=O,ROD,inhibition,100 µM,CEM,-,-,HIV-2,0%
COc1ccc(S(=O)(=O)N(CC(C)C)C[C@@H](O)CCN(CC2CCCC2)S(=O)(=O)C2CCC(OC)OC2)cc1,IIIB,EC90,-,CEM,-,p24,HIV-1,1 µM
CC(=O)NC1C=CN(c2cn(CCP(=O)(O)O)nn2)C(=O)N1,ROD,inhibition,100 µM,CEM,-,-,HIV-2,0%
CC(C)C1=C2[C@H]3CC[C@@H]4[C@@]5(C)CC[C@H](OC(=O)[C@H]6C[C@@H](C(=O)O)C6(C)C)C(C)(C)[C@@H]5CC[C@@]4(C)[C@]3(C)CC[C@@]2([C@@H](O)CNCc2nccn2C)CC1=O,92HT599,EC50,-,MT-2,-,p24 / ELISA,HIV-1,<1 µM
O=C1[C@@H](Cc2ccc(O)cc2)NC(=S)N1c1ccccc1,-,inhibition,100 µg/mL,MT-4,-,cytopathic effect / XTT,HIV-2,100%
Cc1cc(S(N)(=O)=O)ccc1NC(=O)COc1ccc(Cl)cc1C(=O)c1cccc(C#N)c1,HXB2,fold resistance,-,HeLa + HELA CD4+,RT-E138K,β-galactosidase,HIV-1,~1
[2H]C(NC(=O)c1ccc(Cl)cc1)C(=O)NC[C@H](O)[C@@]12CC[C@]3(C)[C@H](CC[C@@H]4[C@@]5(C)CC[C@H](OC(=O)[C@H]6C[C@@H](C(=O)O)C6(C)C)C(C)(C)[C@@H]5CC[C@]43C)C1=C(C(C)C)C(=O)C2,92HT599,EC50,-,MT-2,-,p24 / ELISA,HIV-1,<1 µM
CCC(=O)Nc1ccc(-c2cnc3nc(N)nc(N4CCOCC4)c3n2)cc1,IIIB,EC50,-,MT-4,-,-,HIV,>100 µM
CC(C)C1=C2[C@H]3CC[C@@H]4[C@@]5(C)CC[C@H](OC(=O)[C@H]6C[C@@H](C(=O)O)C6(C)C)C(C)(C)[C@@H]5CC[C@@]4(C)[C@]3(C)CC[C@@]2([C@@H](O)CNC(=O)C(C)(C)NC(=O)c2ccccn2)CC1=O,92HT599,EC50,-,MT-2,-,p24 / ELISA,HIV-1,<1 µM
COc1ccc(S(=O)(=O)N(CC2CCCC2)C[C@@H](O)CN(CCc2ccccc2)C(=O)OC(C)(C)C)cc1,IIIB,EC90,-,CEM,-,p24,HIV-1,1 µM
Cc1cc(S(N)(=O)=O)ccc1NC(=O)COc1ccc(Cl)cc1C(=O)c1cc(F)cc(C(F)(F)F)c1,HXB2,fold resistance,-,HeLa + HELA CD4+,RT-K103N,β-galactosidase,HIV-1,~1
CC(C)C1=C2[C@H]3CC[C@@H]4[C@@]5(C)CC[C@H](OC(=O)[C@H]6C[C@@H](C(=O)O)C6(C)C)C(C)(C)[C@@H]5CC[C@@]4(C)[C@]3(C)CC[C@@]2([C@@H](O)CNCc2ccc(O[C@H]3CCOC3)cc2)CC1=O,92HT599,EC50,-,MT-2,-,p24 / ELISA,HIV-1,<1 µM
O=C(NCCc1ccccc1)Nc1nc(C(F)(F)F)cs1,-,inhibition,1 µg/mL,MT-4,-,RT activity,HIV-2,95%
Cc1cc(C#N)cc(C(=O)c2cc(Cl)ccc2OCC(=O)Nc2cnc(S(N)(=O)=O)cc2C)c1,HXB2,fold resistance,-,HeLa + HELA CD4+,RT-P236L,β-galactosidase,HIV-1,~1
CCOP(=O)(CCCC(O)n1cc(N2C=CC(NC(C)=O)NC2=O)nn1)OCC,ROD,inhibition,100 µM,CEM,-,-,HIV-2,0%
Cc1cc(C)cc(C(=O)c2cc(Cl)ccc2OCC(=O)Nc2ccc(S(N)(=O)=O)cc2C)c1,HXB2,fold resistance,-,HeLa + HELA CD4+,RT-P236L,β-galactosidase,HIV-1,~1
Cc1ccc(C)n1-c1ccc(C(=O)O)c(O)c1,92US657 R5 CLADE B,EC90,-,PBMC + MT-2,-,p24,HIV-1,126.7 µM
COc1ccc(S(=O)(=O)N(CC[C@H](O)CN2CCN(C(=O)OCc3ccccc3)C[C@H]2C(=O)NC(C)(C)C)CC(C)C)cc1,IIIB,EC90,-,CEM,-,p24,HIV-1,1 µM
CCOc1nc(N)nc2ncc(-c3ccc(OC)c(OC)c3)nc12,IIIB,EC50,-,MT-4,-,-,HIV,>100 µM
O=C1[C@@H](Cc2ccccc2)NC(=S)N1c1ccccc1,-,inhibition,1 µg/mL,MT-4,-,cytopathic effect / XTT,HIV-2,37%
CCOP(=O)(Cn1cc(C2N=C3C(N)=NC=NC3N2C)nn1)OCC,ROD,inhibition,100 µM,CEM,-,-,HIV-2,0%
CC(C)CN(C[C@H](O)C[C@@H](CN[C@H]1Cc2ccccc2[C@H]1O)Cc1ccccc1)S(=O)(=O)c1ccccc1,IIIB,EC90,-,CEM,-,p24,HIV-1,1 µM
CC(C)C1=C2[C@H]3CC[C@@H]4[C@@]5(C)CC[C@H](OC(=O)[C@H]6C[C@@H](C(=O)O)C6(C)C)C(C)(C)[C@@H]5CC[C@@]4(C)[C@]3(C)CC[C@@]2(CCNC(=O)c2ccc(N3CCS(=O)(=O)CC3)cc2)CC1=O,92HT599,EC50,-,MT-2,-,p24 / ELISA,HIV-1,<1 µM
CCOP(=O)(OCC)C(O)n1cc(-n2ccc(=O)[nH]c2=O)nn1,ROD,inhibition,100 µM,CEM,-,-,HIV-2,0%
CC(C)C1=C2[C@H]3CC[C@@H]4[C@@]5(C)CC[C@H](OC(=O)[C@H]6C[C@@H](C(=O)O)C6(C)C)C(C)(C)[C@@H]5CC[C@@]4(C)[C@]3(C)CC[C@@]2(CCNC(=O)c2ccc(N3CCCCC3)cc2)CC1=O,92HT599,EC50,-,MT-2,-,p24 / ELISA,HIV-1,<1 µM
CCOP(=O)(Cn1cc(-n2ccc(=O)[nH]c2=O)nn1)OCC,ROD,inhibition,100 µM,CEM,-,-,HIV-2,0%
O=C(NCCc1ccccc1)Nc1nc2ccc(Cl)cc2s1,-,inhibition,1 µg/mL,MT-4,-,RT activity,HIV-2,79%
CC(C)C1=C2[C@H]3CC[C@@H]4[C@@]5(C)CC[C@H](OC(=O)[C@H]6C[C@@H](C(=O)O)C6(C)C)C(C)(C)[C@@H]5CC[C@@]4(C)[C@]3(C)CC[C@@]2(CC(=O)N(CCN(C)C)Cc2nccs2)CC1=O,92HT599,EC50,-,MT-2,-,p24 / ELISA,HIV-1,<1 µM
CCOP(=O)(CC(O)n1cc(-n2c[n+](C)c(=O)[nH]c2=O)nn1)OCC,ROD,inhibition,100 µM,-,-,-,HIV-2,0%

3 of the rows above, restated:

smiles,strain or isolate,measure,tested at,cells,mutations,read by,agent,result
COc1ccc(S(=O)(=O)N(CC(C)C)C[C@@H](O)CCN(CC2CCCC2)S(=O)(=O)C2CCC(OC)OC2)cc1,IIIB,EC90,-,CEM,-,p24,HIV-1,1 µM
Cc1cc(C)cc(C(=O)c2cc(Cl)ccc2OCC(=O)Nc2ccc(S(N)(=O)=O)cc2C)c1,HXB2,fold resistance,-,HeLa + HELA CD4+,RT-P236L,β-galactosidase,HIV-1,~1
Cc1cc(C#N)cc(C(=O)c2cc(Cl)ccc2OCC(=O)Nc2cnc(S(N)(=O)=O)cc2C)c1,HXB2,fold resistance,-,HeLa + HELA CD4+,RT-P236L,β-galactosidase,HIV-1,~1